The results in this text go back to PubChem BioAssay AID602346 (Broad Institute, 2012).

Molecules are shown by their SMILES. Only a part is listed here, and it is no random draw. Calls of active or inactive are those of the source. Rule as the data show it: active = inhibition above about 50% (passing the limit was not always enough); inconclusive = no clear call, values can overlap the other calls; inactive = below about 31%.

A short description of this test: HIV Vif self-association inhibitors, primary screen, imaging, HEK293T, single point (AID 602346). The settings on record: HEK293T cells, Vif self-association by quenched fluorescence, 24 h, at 7.49 µM, hits give high values.
For the compound `Cc1ccc(C(=O)NCC2(N3CCCCC3)CCCCC2)o1`, the inhibition (usually the relative decrease from the control value, in per cent) was inactive: -1.83%.
On to `Fc1ccccc1NC1CCN(Cc2ccccc2)CC1`, for which the inhibition is inactive: 4.43%.
Regarding `Cc1ccc(NC2(C#N)CCN(Cc3ccccc3)CC2)cc1`, the inhibition is inactive: -5.15%.
The same measure for `CC(=O)N(c1ccccc1)C1CCNCC1`: inactive: -7.41%; for `O=c1[nH]c2ccccc2n1C1CCN(C(c2ccnc3ccccc23)c2nnnn2C2CCCCC2)CC1` (stereo not drawn): inactive: 6.16%.
With `COc1cc(OC)cc(C(=O)NCC2(N3CCCCC3)CCCCC2)c1`, the inhibition was inactive: 19.5%.
Next, `O=C(NCC1(N2CCCCC2)CCCCC1)c1ccco1`: inactive: -3.93%.
`Cn1c(=O)[nH]cc(N(CCCl)CCCl)c1=O`: the inhibition is inactive: -1.96%.
The same measure for `CN(C)c1ccc(C(=O)NCC2(N3CCCCC3)CCCCC2)cc1`: inactive: -3.63%; for `Cc1ccccc1NC1(C#N)CCN(Cc2ccccc2)CC1`: inactive: 8.75%.
For the compound `CC(C)(C)n1nnnc1C(c1ccnc2ccccc12)N1CCC(n2c(=O)[nH]c3ccccc32)CC1` (stereo not drawn), the inhibition is inactive: -1.1%.
The same measure for `CCN1CCC(Nc2cccc(F)c2)CC1`: inactive: -6.11%.
The same measure for `CC(C)(C)OC(=O)N1CCC(Nc2ccccc2)CC1`: inactive: 4.72%; for `O=C(O)C1(Nc2ccccc2)CCN(Cc2ccccc2)CC1`: inactive: 2.5%.
Regarding `CCCOc1ccc(C(=O)NCC2(N(C)C)CCCCC2)cc1`, the inhibition was inactive: -19%.
`O=c1[nH]c2ccccc2n1C1CCN(C(c2cc3ccccc3o2)c2nnnn2C2CCCC2)CC1` (stereo not drawn): the inhibition was inactive: 5.38%.
Turning to `CCOc1ncccc1C(=O)NCC1(N2CCOCC2)CCCCC1`, the inhibition was inactive: -2.41%.
As to `CN1CCC(Nc2ccc(F)c(Cl)c2)CC1`, the inhibition is inactive: 0.577%.
Regarding `CN1CCC(Nc2ccc(Cl)cc2)CC1`, the inhibition is inactive: 1.75%.
The same measure for `COc1cccc(C(c2nnnn2C2CCCC2)N2CCC(n3c(=O)[nH]c4ccccc43)CC2)c1OC` (stereo not drawn): inactive: 0.378%; for `COc1cc(OC)cc(C(=O)NCC2(N3CCOCC3)CCCCC2)c1`: inactive: 4.98%.
On to `COc1cccc(C(=O)N(c2cc(C)cc(C)c2)C2CCN(C(=O)OC(C)(C)C)CC2)c1`, for which the inhibition is inactive: -3.88%.
Next, `CCC(CO)(C(=O)OC1CN2CCC1CC2)c1ccccc1` (stereo not drawn): inactive: 0.345%; `COc1cc(C(=O)NCC2(N3CCOCC3)CCCCC2)cc(OC)c1C`: inactive: -2.02%.
For `O=C(NCC1(N2CCOCC2)CCCCC1)c1cc(Br)ccc1Cl`, the inhibition was inactive: 11.5%.
Take `O=C(OC1CN2CCC1CC2)C1c2ccccc2C=Cc2ccccc21` (stereo not drawn): the inhibition is inactive: -5.77%.
Regarding `CCOC(=O)N1CCC(Nc2ccc(C)cc2)CC1`, the inhibition was inactive: -4.33%.
Turning to `N/C(=N\O)c1c(N)no[n+]1[O-]`, the inhibition is inactive: -0.351%.
